Results on two molecules are retold here after publication PMC4501059, “Responding to the challenge of untreatable gonorrhea: ETX0914, a first-in-class agent with a distinct mechanism-of-action against bacterial Type II topoisomerases” (Scientific Reports, 2015).

The subject of the test is resistant isolates of S. aureus, S. pneumoniae and N. gonorrhoeae. Nature of the test: MIC versus isolates resistant to ciprofloxacin, the NBTI, novobiocin and ETX0914. It is filed as cell-based.

As to `C[C@@H]1CN2c3c(cc4c(N5C(=O)OC[C@@H]5C)noc4c3F)CC3(C(=O)NC(=O)NC3=O)[C@H]2[C@H](C)O1`, the “susceptibility of fluoroquinolone resistant clinical isolates” value (S. aureus ARC2381, S. pneumoniae ARC2480, N. gonorrhoeae ARC4672, ARC4680, ARC4676) is “fully susceptible”.

`O=C(O)c1cn(C2CC2)c2cc(N3CCNCC3)c(F)cc2c1=O` [Ciprofloxacin 2, Ciprofloxacin, reference compound]: the “susceptibility of spontaneous ETX0914 resistant mutants” value (S. aureus and N. gonorrhoeae GyrB mutants) was “fully susceptible”.
